PubChem BioAssay AID504761 – Drosophila RNAi Screening Center – 2011
In all, the deposit lists about 22,000 reagents; shown is a random part of those with a known target gene and a result. In the full data, 116 (0.52%) were called active. 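Calls depend on retest data that are not deposited; infection was ranked per plate without normalising between plates; the unit of the infection score is not given.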 Raw values vary from plate to plate and are shown uncorrected. Names joined by + are all predicted targets of the reagent. Not stated in the record: the amount of reagent, the time to read-out.

- Screen: 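Insect host genes that dengue virus relies on to spread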 (primary screen)
- Cells: D.Mel-2 cells from Drosophila
- Reagents: long dsRNA against Drosophila genes
- Conditions: infection with dengue virus type 2; dose and infection time not stated
- Read-out: 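Cells stained for dengue envelope protein and imaged; percent of infected cells per well on duplicate plates, ranked by infection, with stained nuclei counted for cell number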
- Reading the numbers: infection score: higher = more virus-infected cells; cell count: higher = more cells in the well
- Hit rule: 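Low infection ranks in the two replicates (chance level up to 0.065) followed by a retest with a 1.5-fold or larger significant decrease, p below 0.05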
- Meaning of the calls: active = confirmed: knock-down lowers infection; inactive = not picked or not confirmed

Target gene | dsRNA | infection score, replicate 1 | infection score, replicate 2 | cell count, replicate 1 | cell count, replicate 2 | Outcome
Cirl (Calcium-independent receptor for alpha-latrotoxin) | DRSC23235 | 6.12 | 6.81 | 6734 | 6853 | inactive
Cirl (Calcium-independent receptor for alpha-latrotoxin) | DRSC28280 | 12.8 | 10.2 | 5919 | 2519 | inactive
CG31816 | DRSC01547 | 9.02 | 8.86 | 6145 | 5599 | inactive
CG15141 | DRSC02441 | 9.06 | 1.55 | 6482 | 6817 | inactive
CG15141 | DRSC02442 | 4.57 | 2.94 | 6607 | 6669 | inactive
CG15141 | DRSC29031 | – | – | 138 | 247 | inactive
PIG-L (Phosphatidylinositol glycan anchor biosynthesis class L) | DRSC15577 | 2.22 | 1.71 | 6698 | 6415 | inactive
PIG-L (Phosphatidylinositol glycan anchor biosynthesis class L) | DRSC24921 | 7.16 | 2.29 | 6157 | 6588 | inactive
mei-41 (meiotic 41) | DRSC20350 | 3.65 | 1.83 | 6803 | 6324 | inactive
hd (humpty dumpty) | DRSC12316 | 13.2 | 5.31 | 6571 | 6646 | inactive
hd (humpty dumpty) | DRSC26302 | 22.6 | 10.5 | 5552 | 5695 | inactive
CG13282 | DRSC02254 | 8.03 | 3.83 | 5913 | 6872 | inactive
CR18275 + CG13373 | DRSC17900 | 9.77 | 1.21 | 6264 | 6503 | inactive
Gip (GIP-like) | DRSC18667 | 2.36 | 2.06 | 6780 | 6274 | inactive
Lac (Lachesin) | DRSC07452 | 20.8 | 19 | 4531 | 5906 | inactive
CG12496 | DRSC18602 | 1.08 | 12.6 | 6658 | 5123 | inactive
CG12496 | DRSC28576 | – | – | 442 | 419 | inactive
RhoGAPp190 (Rho GTPase activating protein p190) | DRSC20097 | 5.2 | 8.81 | 6037 | 5994 | inactive
RhoGAPp190 (Rho GTPase activating protein p190) | DRSC20099 | 8.1 | 5.11 | 5261 | 5795 | inactive
Dad1 (Defender against apoptotic cell death 1) | DRSC02263 | 4.93 | 4.52 | 5926 | 6266 | inactive
CG17350 | DRSC02611 | 4.97 | 0.63 | 2553 | 6811 | inactive
mRpS21 (mitochondrial ribosomal protein S21) | DRSC12965 | 9.41 | 2.65 | 4886 | 4345 | inactive
mRpS21 (mitochondrial ribosomal protein S21) | DRSC21357 | 8.06 | 10.3 | 5584 | 5004 | inactive
mRpS21 (mitochondrial ribosomal protein S21) | DRSC29842 | 13.6 | 4.66 | 5642 | 6519 | inactive

Records above whose gene name begins with H or h:
Target gene | dsRNA | infection score, replicate 1 | infection score, replicate 2 | cell count, replicate 1 | cell count, replicate 2 | Outcome
hd (humpty dumpty) | DRSC12316 | 13.2 | 5.31 | 6571 | 6646 | inactive
hd (humpty dumpty) | DRSC26302 | 22.6 | 10.5 | 5552 | 5695 | inactive
